Data from patent US20240109955A1 (published 2024).
Changes are numbered by the printed parent chain.

B1: MX828 (bispecific antibody)
chain: QTVVTQEPSFSVSPGGTVTLTCGLSSGSVSTAYFPSWYQQTPGQAPRTLIYGTNTRSSGVPDRFSGSILGNKAALTITGAQADDESDYYCVLYMGRGIVVFGGGTKLTVLGGSSGEIVLTQSPGTLSLSPGERATLSCRASQSVSSSYLAWYQQKPGQAPRLLIYSASSRATGIPDRFSGSGSGTDFTLTISRLEPEDFAVYFCQQYVGLTGWTFGQGTKVEIKGGGGSGGSGSGGGGSASGSGQMQLVQSGPEVKKPGTSVKVSCKASGFTFTSSAVQWVRQRQRLEWIGWIVVGSGNTNYAQKFQERVTITRDMSTSTAYMELSSLRSEDTAVYYCAAPNCSNVVCYDGFDIWGQGTMVTVSSGGSSGQVQLVESGGGVVQPGRSLRLSCAASGFTLSSYGMHWVRQAPGKGLEWVAVISYDGSNKYYVDSVKGRFTISRDNSKNTLYLQMNSLRAEDTAVYYCRWAYWELLPDYYYGMDVWGQGTTVTVSSASGGSGDKTHTCPPCPAPELLGGPSVFLFPPKPKDTLMISRTPEVTCVVVDVSHEDPEVKFNWYVDGVEVHNAKTKPREEQYNSYVVSVLTVLHQDWLNGKEYKCKVSNKALPAPIEKTISKAKGQPREPQVYTLPPSRDELTKNQVSLTCLVKGFYPSDIAVEWESNGQPENNYKTTPPVLDSDGSFFKKLTVDKSRWQQGNVFSCSVLHEALHSHYTQKSLSLSPG
B2: MX834 (other)
chain 1: B1 chain with S632C, T644W
chain 2: B1 chain with S632C, T644W
B3: MX830 (bispecific antibody)
chain: B1 chain with V208G
B4: MX829 (bispecific antibody)
chain: DIQMTQSPSSVSASVGDRVIITCRASQGISSWLAWYQQKPGKAPKVLIYDASSLQSGVPSRFSGSGYGTDFTLTISSLQPEDSATYYCQQAKSFPITFGQGTRLEIKGGSSGEIVLTQSPGTLSLSPGERATLSCRASQSVSSSYLAWYQQKPGQAPRLLIYSASSRATGIPDRFSGSGSGTDFTLTISRLEPEDFAVYFCQQYVGLTGWTFGQGTKVEIKGGGGSGGSGSGGGGSASGSGQMQLVQSGPEVKKPGTSVKVSCKASGFTFTSSAVQWVRQRQRLEWIGWIVVGSGNTNYAQKFQERVTITRDMSTSTAYMELSSLRSEDTAVYYCAAPNCSNVVCYDGFDIWGQGTMVTVSSGGSSGQVQLVESGGGVVQPGRSLRLSCAASGFTFSSYAFHWVRQAPGKGLEWVAVISYDGSNQYYADSVKGRFTISRDNSKNTLYLQMNSLRADDTAVYYCARDLAIAVAGTWHYYNGMDVWGQGTTVTVSSASGGSGDKTHTCPPCPAPELLGGPSVFLFPPKPKDTLMISRTPEVTCVVVDVSHEDPEVKFNWYVDGVEVHNAKTKPREEQYNSYVVSVLTVLHQDWLNGKEYKCKVSNKALPAPIEKTISKAKGQPREPQVYTLPPSRDELTKNQVSLTCLVKGFYPSDIAVEWESNGQPENNYKTTPPVLDSDGSFFKKLTVDKSRWQQGNVFSCSVLHEALHSHYTQKSLSLSPG
B5: MX831 (bispecific antibody)
chain: B4 chain with V205G

How the values were obtained:
Experiment in all cases: cell-based or functional assay
[1] = biological target: SARS-CoV-2 spike protein, Omicron sublineage BA.2 (SARS-CoV-2, UniProt P0DTC2 14-1273)
[2] = biological target: SARS-CoV-2 spike protein, Omicron sublineage BA.2.12.1 (SARS-CoV-2, UniProt P0DTC2 14-1273)
[3] = biological target: SARS-CoV-2 spike (S) protein, Omicron sublineage BA.2.12.1 (SARS-CoV-2, UniProt P0DTC2 14-1273)

Row | Binder | IC50, pseudovirus neutralization [1] | IC80, pseudovirus neutralization [1] | IC50, pseudovirus neutralization [2] | IC80, pseudovirus neutralization [2] | IC50, pseudovirus neutralization [3] | IC80, pseudovirus neutralization [3]
1 | B1 | 13.7 nM | 20.3 nM | 43 nM | 75 nM |  | 
2 | B2 |  |  |  |  | 4.62 nM | 12.1 nM
3 | B3 | 9.41 nM | 10.8 nM | 62.7 nM | 94.3 nM |  | 
4 | B4 | 3.58 nM | 6.06 nM | 3.96 nM | 8.4 nM |  | 
5 | B5 | 0.03 nM | 0.08 nM | 38 nM | 42.9 nM |  | 
